Assay results published in patent US20240074990A1 (priority 2022, published 2024).
The source holds more than one record for some entries. Only these are listed. The source may hold further records. Results that share an entry differ for a reason that is not stated; some may be repeats, others may stem from another dose, organism or construct than stated.

Molecular target: SARS-CoV 3CL protease (Severe acute respiratory syndrome coronavirus, UniProt P0C6X7)
Experiment: In-vitro enzyme activity inhibition test on SARS-CoV 3CL protease (fluorescence resonance energy transfer method)
Format: biochemical
Conditions: parallel tests 1, 2, 3, tested form: acetate (acetic acid salt/solvate form o)

Which inhibition percentage (0.1 μM compound, 0.1 µM) does the source give for Cc1cc2c(C(C)C)c(O)c(O)c(C=O)c2c(O)c1-c1c(C)cc2c(C(C)C)c(O)c(O)c(C=O)c2c1O here?
Its inhibition percentage is 9.43%, 6.51%, 14.2%.

And the inhibition percentage (0.5 μM compound, 0.5 µM)?
The inhibition percentage was 10.7% and 21.7%.
